{"source": "patent US20090068207A1", "about": "“Compositions Containing Beta 2-Glycoprotein I-Derived Peptides for the Prevention and/or Treatment of Vascular Disease” (Vascular Biogenics Ltd., priority 2005, published 2009)", "assay": "Body weight, plasma cholesterol and triglyceride after nasal administration (LDL-RD mice)", "assay_type": "in vivo", "conditions": "End, mean ± S.E", "data": [{"molecule": "HSP65: recombinant human HSP 65 according to Example 2 and Table 2 (protein, UniProt P10809 27-573, looked up) 60 kDa heat shock protein, …: AKDVKFGADARALMLQGVDLLADAVAVTMGPKGRTVIIEQSWGSPKVTKDGVTVAKSIDLKDKYKNIGAKLVQDVANNTNEEAGDGTTTATVLARSIAKEGFEKISKGANPVEIRRGVMLAVDAVIAELKKQSKPVTTPEEIAQVATISANGDKEIGNIISDAMKKVGRKGVITVKDGKTLNDELEIIEGMKFDRGYISPYFINTSKGQKCEFQDAYVLLSEKKISSIQSIVPALEIANAHRKPLVIIAEDVDGEALSTLVLNRLKVGLQVVAVKAPGFGDNRKNQLKDMAIATGGAVFGEEGLTLNLEDVQPHDLGKVGEVIVTKDDAMLLKGKGDKAQIEKRIQEIIEQLDVTTSEYEKEKLNERLAKLSDGVAVLKVGGTSDVEVNEKKDRVTDALNATRAAVEEGIVLGGGCALLRCIPALDSLTPANEDQKIGIEIIKRTLKIPAMTIAKNAGVEGSLIVEKIMQSSSEVGYDAMAGDFVNMVEKGIIDPTKVVRTALLDAAGVASLLTTAEVVVTEIPKEEKDPGMGAMGGMGGGMGGGMF", "values": [{"measurement": "Triglyceride", "setting": "intranasal 1 μg/mouse", "result": "315 ± 46", "unit": "mg/dL"}, {"measurement": "Weight", "setting": "intranasal 1 μg/mouse", "result": "26.9 ± 0.9", "unit": "g"}, {"measurement": "Triglyceride", "setting": "intranasal 10 μg/mouse", "result": "348 ± 32", "unit": "mg/dL"}, {"measurement": "Weight", "setting": "intranasal 10 μg/mouse", "result": "28.4 ± 1.0", "unit": "g"}]}]}
